Amino acid sequences for entries named in this document (tags omitted). A change or cut given only in a name is not applied to a line headed by its entry.
UniProt P0DUJ8: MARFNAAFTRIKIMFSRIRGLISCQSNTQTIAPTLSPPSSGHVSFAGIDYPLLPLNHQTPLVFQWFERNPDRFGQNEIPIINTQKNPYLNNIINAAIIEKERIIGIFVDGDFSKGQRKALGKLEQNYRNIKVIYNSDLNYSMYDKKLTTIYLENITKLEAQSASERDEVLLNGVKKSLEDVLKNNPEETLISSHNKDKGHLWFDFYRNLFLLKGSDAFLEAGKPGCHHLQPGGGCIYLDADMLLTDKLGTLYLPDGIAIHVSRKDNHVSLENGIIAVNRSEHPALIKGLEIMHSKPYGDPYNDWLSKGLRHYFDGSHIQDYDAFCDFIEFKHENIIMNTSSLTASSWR

According to paper PMC6305410, “High-Throughput Screening for Bacterial Glycosyltransferase Inhibitors” (Frontiers in Cellular and Infection Microbiology, 2018):

Molecular target: SseK2 (Salmonella enterica, UniProt P0DUJ8)
Assay: western blot of FADD arginine glycosylation
Details: 1 mM UDP-GlcNAc, 1 μM human FADD, 10 mM MnCl2, RT; for % inhibition: 200 nM enzyme, 50 mM Tris-HCl pH 7.4

CC(=O)N[C@H]1[C@@H](OP(=O)(O)OP(=O)(O)OC[C@H]2O[C@@H](n3ccc(=O)[nH]c3=O)[C@H](O)[C@@H]2O)O[C@H](CO)[C@@H](O)[C@@H]1O
western blot of FADD arginine glycosylation (pH 7.4): SseK2 glycosylates the human FADD protein

O=c1cc(-c2ccccc2Cl)oc2c(NS(=O)(=O)c3cc(Cl)cc(Cl)c3O)ccc(O)c12 [KUC100066N]
% inhibition: these compounds both inhibited FADD glycosylation by SseK2 in a concentration-dependent manner

O=C(O)c1cc(-c2ccc(-c3c(-c4ccco4)noc3-c3ccccc3)cc2)nc2ccccc12 [KUC102644N]
% inhibition: these compounds both inhibited FADD glycosylation by SseK2 in a concentration-dependent manner
